Legend:
[1] = test system: Nav1.4; test: Guanidine influx assay, CHO-K1 cells; conditions: 18- to 20-fold increase in influx
[2] = test system: Nav1.4 and 1.5; test: Guanidine influx assay, L6 cells; conditions: 10- to 15-fold increase in influx, TTX at 100 nM
[3] = test system: Nav1.2 and Nav1.7; test: Guanidine influx assay, PC12 cells; conditions: 8- to 12-fold increase in influx
[4] = biological target: hNav1.7 (Homo sapiens (Human), UniProt Q15858); test: Guanidine influx assay, hNav1.7
[5] = test system: Nav1.9 and Nav1.7; test: Guanidine influx assay, SH-SY5Y cells; conditions: 10- to 16-fold increase in influx
[6] = biological target: Nav1.8 (Homo sapiens (Human), UniProt Q9Y5Y9); test: Guanidine influx assay, SK-N-BE2C cells; conditions: SK-N-BE2C cells stimulated with pyrethroids; 6-fold increase in influx

Amino acid sequences for entries named in this document (tags omitted). A change or cut given only in a name is not applied to a line headed by its entry.
UniProt Q15858: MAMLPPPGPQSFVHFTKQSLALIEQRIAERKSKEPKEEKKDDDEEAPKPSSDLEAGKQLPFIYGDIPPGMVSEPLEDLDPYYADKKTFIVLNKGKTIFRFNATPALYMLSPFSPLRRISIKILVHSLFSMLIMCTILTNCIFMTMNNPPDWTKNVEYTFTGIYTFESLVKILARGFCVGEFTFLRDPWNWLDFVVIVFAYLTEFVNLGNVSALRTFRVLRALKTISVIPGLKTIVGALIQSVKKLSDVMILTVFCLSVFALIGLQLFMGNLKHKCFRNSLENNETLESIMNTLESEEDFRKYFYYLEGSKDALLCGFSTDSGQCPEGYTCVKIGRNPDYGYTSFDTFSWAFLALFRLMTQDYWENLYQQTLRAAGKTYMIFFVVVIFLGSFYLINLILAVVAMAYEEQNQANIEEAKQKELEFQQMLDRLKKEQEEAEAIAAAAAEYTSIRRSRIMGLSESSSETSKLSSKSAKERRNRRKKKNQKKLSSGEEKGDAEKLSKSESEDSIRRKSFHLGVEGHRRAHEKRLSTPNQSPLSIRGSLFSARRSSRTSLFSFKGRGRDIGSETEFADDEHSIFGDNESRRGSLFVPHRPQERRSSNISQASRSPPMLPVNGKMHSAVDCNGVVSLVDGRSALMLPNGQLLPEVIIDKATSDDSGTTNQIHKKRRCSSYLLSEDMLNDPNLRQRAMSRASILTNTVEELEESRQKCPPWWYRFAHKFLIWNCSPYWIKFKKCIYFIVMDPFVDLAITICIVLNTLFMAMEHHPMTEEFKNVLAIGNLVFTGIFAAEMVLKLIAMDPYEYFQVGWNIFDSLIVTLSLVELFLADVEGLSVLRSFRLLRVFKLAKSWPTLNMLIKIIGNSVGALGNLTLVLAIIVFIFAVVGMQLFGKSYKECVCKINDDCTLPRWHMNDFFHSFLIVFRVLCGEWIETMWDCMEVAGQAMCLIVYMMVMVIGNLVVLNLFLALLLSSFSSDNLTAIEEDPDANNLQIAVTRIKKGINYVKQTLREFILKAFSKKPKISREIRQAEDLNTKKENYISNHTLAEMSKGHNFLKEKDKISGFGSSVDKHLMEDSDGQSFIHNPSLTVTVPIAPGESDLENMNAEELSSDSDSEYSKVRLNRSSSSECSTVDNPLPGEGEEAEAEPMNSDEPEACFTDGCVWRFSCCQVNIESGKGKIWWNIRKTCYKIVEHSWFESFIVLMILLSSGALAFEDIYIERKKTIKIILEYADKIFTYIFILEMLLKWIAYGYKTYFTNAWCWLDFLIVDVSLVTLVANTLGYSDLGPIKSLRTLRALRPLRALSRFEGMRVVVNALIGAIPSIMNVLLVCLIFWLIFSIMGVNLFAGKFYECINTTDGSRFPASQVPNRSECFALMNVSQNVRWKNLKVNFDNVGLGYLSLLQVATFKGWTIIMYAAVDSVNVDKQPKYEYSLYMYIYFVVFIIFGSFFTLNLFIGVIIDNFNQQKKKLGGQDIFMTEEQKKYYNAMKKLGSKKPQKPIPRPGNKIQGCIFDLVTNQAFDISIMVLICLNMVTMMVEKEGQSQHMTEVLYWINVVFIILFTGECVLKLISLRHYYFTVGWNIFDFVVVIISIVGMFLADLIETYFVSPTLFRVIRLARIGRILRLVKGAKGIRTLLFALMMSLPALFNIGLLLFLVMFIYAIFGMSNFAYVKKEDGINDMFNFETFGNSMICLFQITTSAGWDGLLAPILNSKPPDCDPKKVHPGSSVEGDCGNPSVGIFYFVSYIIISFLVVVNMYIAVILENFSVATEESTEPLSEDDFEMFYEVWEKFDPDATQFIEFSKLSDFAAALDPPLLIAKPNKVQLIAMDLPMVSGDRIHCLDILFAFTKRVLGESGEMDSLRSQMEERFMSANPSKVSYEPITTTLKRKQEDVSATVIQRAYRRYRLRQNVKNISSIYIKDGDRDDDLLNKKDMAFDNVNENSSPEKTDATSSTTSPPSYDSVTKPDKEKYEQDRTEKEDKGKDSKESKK
UniProt Q9Y5Y9: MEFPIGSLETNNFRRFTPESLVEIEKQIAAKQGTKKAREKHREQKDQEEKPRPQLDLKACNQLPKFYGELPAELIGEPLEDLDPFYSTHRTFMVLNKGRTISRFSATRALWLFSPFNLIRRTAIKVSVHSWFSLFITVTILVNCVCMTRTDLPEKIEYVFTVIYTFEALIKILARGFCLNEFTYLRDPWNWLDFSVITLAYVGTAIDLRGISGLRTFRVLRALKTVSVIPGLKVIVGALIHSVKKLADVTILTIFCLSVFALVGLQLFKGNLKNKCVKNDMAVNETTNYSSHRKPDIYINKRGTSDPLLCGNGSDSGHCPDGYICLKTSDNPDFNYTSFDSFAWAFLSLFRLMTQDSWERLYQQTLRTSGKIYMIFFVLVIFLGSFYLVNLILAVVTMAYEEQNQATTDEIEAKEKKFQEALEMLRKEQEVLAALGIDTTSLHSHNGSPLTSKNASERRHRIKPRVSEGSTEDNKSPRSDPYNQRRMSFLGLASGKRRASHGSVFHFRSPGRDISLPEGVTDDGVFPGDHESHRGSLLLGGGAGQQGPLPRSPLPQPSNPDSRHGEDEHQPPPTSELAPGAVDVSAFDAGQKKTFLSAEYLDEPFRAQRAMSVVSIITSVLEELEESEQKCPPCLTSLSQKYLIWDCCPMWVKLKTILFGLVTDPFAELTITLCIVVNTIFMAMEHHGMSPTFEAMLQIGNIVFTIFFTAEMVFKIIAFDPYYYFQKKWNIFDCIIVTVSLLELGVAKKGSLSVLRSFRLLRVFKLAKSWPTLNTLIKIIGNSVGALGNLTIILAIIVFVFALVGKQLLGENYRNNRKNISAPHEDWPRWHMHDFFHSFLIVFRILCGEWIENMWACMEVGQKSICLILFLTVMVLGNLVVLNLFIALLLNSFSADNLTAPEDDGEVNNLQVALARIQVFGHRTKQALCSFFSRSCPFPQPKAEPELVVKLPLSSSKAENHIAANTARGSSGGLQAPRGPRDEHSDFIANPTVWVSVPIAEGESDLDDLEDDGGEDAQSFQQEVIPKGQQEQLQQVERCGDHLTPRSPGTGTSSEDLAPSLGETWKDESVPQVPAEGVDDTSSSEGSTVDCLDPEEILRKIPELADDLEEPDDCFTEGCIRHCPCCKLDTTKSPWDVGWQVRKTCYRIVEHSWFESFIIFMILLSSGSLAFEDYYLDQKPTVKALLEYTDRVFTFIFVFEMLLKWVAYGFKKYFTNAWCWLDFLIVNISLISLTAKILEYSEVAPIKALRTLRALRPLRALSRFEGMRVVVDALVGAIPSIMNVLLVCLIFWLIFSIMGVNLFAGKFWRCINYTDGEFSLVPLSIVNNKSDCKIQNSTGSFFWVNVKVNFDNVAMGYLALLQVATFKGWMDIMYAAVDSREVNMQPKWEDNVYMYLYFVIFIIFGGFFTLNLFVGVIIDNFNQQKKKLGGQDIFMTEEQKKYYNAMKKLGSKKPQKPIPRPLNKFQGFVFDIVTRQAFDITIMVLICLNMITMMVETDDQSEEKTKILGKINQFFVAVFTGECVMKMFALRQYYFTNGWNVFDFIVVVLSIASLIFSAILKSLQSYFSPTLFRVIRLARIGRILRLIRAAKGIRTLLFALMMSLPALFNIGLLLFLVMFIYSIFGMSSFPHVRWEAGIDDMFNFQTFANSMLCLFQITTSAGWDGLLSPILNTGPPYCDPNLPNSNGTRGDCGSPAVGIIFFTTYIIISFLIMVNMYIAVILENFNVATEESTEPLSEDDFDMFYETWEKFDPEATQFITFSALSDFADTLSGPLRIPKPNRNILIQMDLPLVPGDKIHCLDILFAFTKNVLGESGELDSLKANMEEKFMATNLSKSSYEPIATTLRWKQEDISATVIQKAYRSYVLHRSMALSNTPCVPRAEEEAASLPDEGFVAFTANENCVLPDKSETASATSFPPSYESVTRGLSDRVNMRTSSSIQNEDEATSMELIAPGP

## TTX
[1]
  block of [14C] guanidine influx: completely blocked using TTX.
[2]
  block of [14C] guanidine influx: partially blocked by TTX at 100
[3]
  block of [14C] guanidine influx: guanidine influx was completely
[4]
  IC50: 8 nM
[5]
  block of [14C] guanidine influx above background: background was partially blocked
[6]
  block of [14C] guanidine influx: TTX partially blocked influx
